Pooled drug test results. Numbers come from NIAID ChemDB, via PubChem.

Common to all: tests in culture; species: Staphylococcus aureus; read-out: MIC

Rows are shuffled and stem from different studies. Blank or dashed fields: not listed here.

SMILES | strain | value
CC(C)c1c(O)c(N)cc2c1CC[C@H]1C(C)(C)CCC[C@]21C | - | >32 µg/mL
CO[C@H]1/C=C/O[C@@]2(C)Oc3c(C)c(O)c4c(=O)c(c5oc6cc(N7CCN(CC(C)C)CC7)cc(=O)c6nc5c4c3=C2O)NC(=O)/C(C)=C\C=C\[C@H](C)[C@H](O)[C@@H](C)[C@@H](O)[C@@H](C)[C@H](OC(C)=O)[C@@H]1C | SMITH | 0.0078 µg/mL
O=c1[nH]sc2cccc(F)c12 | ATCC 6538 | 25 µg/mL
O=C(O)c1cn(C2CC2)c2c(Cl)c(N3CCNCC3)c(F)cc2c1=O | 422 | 0.125 µg/mL
CO[C@H]1/C=C/O[C@@]2(C)Oc3c(C)c(O)c4c(O)c(c5c(c4c3C2=O)NC2(CCN(CC(C)C)CC2)N=5)=NC(=O)/C(C)=C\C=C\[C@H](C)[C@H](O)[C@@H](C)[C@@H](O)[C@@H](C)[C@H](OC(C)=O)[C@@H]1C | ATCC 29213 | 0.0313 µg/mL
COc1c(N)cc2c(c1C(C)C)CC[C@H]1C(C)(C)CCC[C@]21C | - | >32 µg/mL
C[C@H]1C[C@H](N)CN1c1nc2c(cc1F)c(=O)c(C(=O)O)cn2-c1ccc(F)cc1F | 1775 (ciprofloxacin-resistant) | 8 µg/mL
CC1CN(c2c(Cl)cc3c(=O)c(C(=O)O)cn(C4CC4)c3c2F)CCN1 | 422 | 0.25 µg/mL
Cc1c(N2CC[C@H](NC3CC3)C2)c(F)cn2c(=O)c(C(=O)O)cc(C3CC3)c12 | 1775 (ciprofloxacin-resistant) | 3.1 µg/mL
CC(=O)CN1CCN(c2c(Cl)cc3c(=O)c(C(=O)O)cn(C4CC4)c3c2F)CC1 | 422 | 0.25 µg/mL
O=c1[nH]sc2ccc(F)cc12 | ATCC 6538 | 5 µg/mL
CC[C@H](N)C1CCN(c2c(F)cn3c(=O)c(C(=O)O)cc(C4CC4)c3c2C)C1 | NCTC10649 | 0.0005 µg/mL
CCCCNC(=O)c1cc(F)ccc1SSc1ccc(F)cc1C(=O)NCCCC | ATCC 6538 | 50 µg/mL
O=C(O)c1cn(C2CC2)c2c(F)c(N3CCNCC3)c(Cl)cc2c1=O | 1756 | 0.25 µg/mL
COc1c([N+](=O)[O-])cc2c(c1C(C)C)CC[C@H]1C(C)(C)CCC[C@]21C | - | >32 µg/mL
CCC1CN(c2c(Cl)cc3c(=O)c(C(=O)O)cn(C4CC4)c3c2F)CCN1 | 133 | 0.25 µg/mL
Cc1cc2c(c(C(C)C)c1O)CC[C@H]1C(C)(C)CCC[C@]21C | - | 32 µg/mL
CCCCn1sc2cc(C(F)(F)F)ccc2c1=O | ATCC 6538 | 5 µg/mL
CN1CCN(c2c(F)cc3c(=O)c(C(=O)O)cn(C4CC4)c3c2Cl)CC1 | 133 | 0.06 µg/mL
Cc1cc(C(=O)O)c(=O)n2cc(F)c(N3CC[C@H](N)C3)c(C)c12 | 1775 (ciprofloxacin-resistant) | >100 µg/mL
O=c1[nH]sc2cc(F)ccc12 | ATCC 6538 | 5 µg/mL
CC1CN(c2c(F)cc3c(=O)c(C(=O)O)cn(C4CC4)c3c2Cl)CCN1 | 1756 | 0.06 µg/mL
Cc1c(N2Cc3cccnc3C2)c(F)cn2c(=O)c(C(=O)O)cc(C3CC3)c12 | NCTC10649 | 0.005 µg/mL
CCCCNC(=O)c1ccc(F)cc1SSc1cc(F)ccc1C(=O)NCCCC | ATCC 6538 | 15 µg/mL

Repeating the final 3 entries:

| SMILES | strain | value |
|---|---|---|
| CC1CN(c2c(F)cc3c(=O)c(C(=O)O)cn(C4CC4)c3c2Cl)CCN1 | 1756 | 0.06 µg/mL |
| Cc1c(N2Cc3cccnc3C2)c(F)cn2c(=O)c(C(=O)O)cc(C3CC3)c12 | NCTC10649 | 0.005 µg/mL |
| CCCCNC(=O)c1ccc(F)cc1SSc1cc(F)ccc1C(=O)NCCCC | ATCC 6538 | 15 µg/mL |